Results from patent US20150150968A1, “USE OF CD28-SPECIFIC MONOCLONAL ANTIBODIES FOR PRODUCING A PHARMACEUTICAL COMPOSITION FOR TREATING VIRUS INFECTIONS” (priority 1999, published 2015).

Assays:
[1] = tested on: PBMC of an HIV-1-infected patient; assay: aCD28- and IL-2-induced proliferation with and without HAART; type: cell-based, human; conditions: day 3 to day 4, FIG. 10
HIV = conditions: IL-2 together with HAART therapy; Chun et al., Nature Medicine 1999; cited from earlier work
[2] = tested on: PBMC of an HIV-infected patient; assay: CD4/CD8 T cell proportions in stimulated PBMC of an HIV-infected patient; type: cell-based, human
Excerpt: It is further important that IL-2 preferentially stimulates CD8 T lymphocytes for proliferation, whereas by aCD28 in particular the CD4 T cells are addressed. This can be seen from the data of table I: PBMC of an HIV-infected patient were stimulated for three or ten days with IL-2 or aCD28.

In the case of “IL-2: T cell growth factor Interleukin-2”, the “induced proliferation, IL-2 compared with aCD28” value [1] is listed as “stronger proliferation than CD28”, the “influence of HAART on the induced proliferation” value [1] is listed as “not affected by HAART” and the “amount of replication-competent HIV in T lymphocytes at rest” value (HIV) is listed as “significant reduction”. The “% CD4” value ([2]; After 10 Days) was 27%, the “% CD8” value ([2]; After 10 Days) was 73% and the “% CD4” value ([2]; After 3 days) was 46%. The “% CD8” value ([2]; After 3 days) was 54% and the “displacement of CD4/CD8 proportion” value ([2]; stimulated for three or ten days) was “distinct displacement in favor of CD8 T cells”.
